Compound potency records, mixed from different reports. Data source: NIAID ChemDB in PubChem.

Shared fields: host cell toxicity; cells: HeLa; read-out: CC50

CCn: concentration that lowers growth or viability of the cells by n%. Conditions beyond the fields shown may differ between rows. An empty or dashed field is not shown.

structure	method	value
CCOC(=O)c1ccc(OCCCCC(=O)c2ccc(Cl)c(Cl)c2)cc1		194 µM
CCOC(=O)c1ccc(OCCCCC(=O)c2cc[nH]c2)cc1		>317 µM
COc1cnc(-n2cccn2)c2[nH]cc(C(=O)C(=O)N3CCN(C(=O)c4ccccc4)CC3)c12	trypan blue	>100 µM
CO[C@H]1C=C2C(C[C@H](O)[C@@H](O)C2(C)C)[C@]2(C)C(=O)C[C@]3(C)C([C@@](C)(O)C(=O)CCC(C)(C)OC(C)=O)[C@H](O)C[C@@]3(C)[C@H]12	MTT	5.1 µM
Cc1ccc(C(=O)CCCCOc2ccc(C3=NCCO3)cc2)cc1C		>285 µM
O=c1cc(-c2cccc(O)c2)c2cccnc2n1O		<100 µM
Cc1ncn(-c2cc(Cl)nc3c(C(=O)C(=O)N4CCN(C(=O)c5ccccc5)[C@H](C)C4)c[nH]c23)n1	trypan blue	>100 µM
Nc1nc(N)nc(OC[C@H]2CC[C@@H](COc3nc(N)nc(N)n3)O2)n1		>250 µM
O=C(C(=O)N1CCN(C(=O)c2ccccc2)CC1)c1c[nH]c2c(-n3ccnn3)ccnc12	trypan blue	>100 µM
Cn1cc(C(=O)CCCCOc2ccc(C(=O)O)cc2)cc1C=O		>303 µM
CS(=O)(=O)c1ccc(NCCc2ccc(Cl)c(Cl)c2)nc1		>10 µg/mL
Cc1ccsc1C(=O)CCCCOc1ccc(C(=O)O)cc1		>314 µM
Nc1cc(OC[C@H]2CC[C@@H](CO)O2)ncn1		>250 µM
CCOC(=O)c1ccc(OCCCCC(=O)c2cc(C=O)n(C)c2)cc1		56 µM
CCOC(=O)c1ccc(OCCCCC(=O)c2ccc(C)c(Cl)c2)cc1		>267 µM
CS(=O)(=O)c1ccc(NCc2ccc(Cl)cc2)nc1		>10 µg/mL
CC(Sc1ncnc2c1cnn2COCCO)C(N)=O		>400 µg/mL
NC(=O)c1ncc(F)c2c(C(=O)C(=O)N3CCN(C(=O)c4ccccc4)CC3)c[nH]c12	trypan blue	>100 µM
COc1cc(OC[C@H]2CC[C@@H](COCc3ccccc3)O2)nc(N)n1		171 µM
CS(=O)(=O)c1ccc(Cc2ccc(F)cc2)nc1		>10 µg/mL
CC(=O)O[C@@H]1C[C@@]2(C)C3CC=C4[C@@H](C[C@H](O)[C@@H](O)C4(C)C)[C@]3(C)C(=O)C[C@]2(C)C1C(C)(O)C(=O)/C=C/C(C)(C)OC(C)=O	MTT	1.2 µM
CS(=O)(=O)Nc1cccc(-c2cc(=O)n(O)c3ncccc23)c1		<100 µM
O=C(C(=O)N1CCN(C(=O)c2ccc(Br)o2)CC1)c1c[nH]c2c(-c3nn[nH]n3)ncc(Cl)c12	trypan blue	>100 µM
NC(=O)CSc1ncnc2c1cnn2COCC(O)CO		>400 µg/mL
CSc1ccc(C(=O)CCCCOc2ccc(C#N)cc2)cc1		307 µM
Nc1cc(OC[C@@H]2O[C@H](CO)[C@@H](O)[C@H]2O)nc(N)n1		>250 µM
CCC(Sc1ncnc2c1cnn2COCCO)C(N)=O		>400 µg/mL
CCOC(=O)c1ccc(OCCCCC(=O)c2ccc(SC)cc2)cc1		>268 µM
CC(C)CS[C@H]1C[C@@H](n2cnc3c(N)ncnc32)[C@H](O)[C@@H]1O		≥400 µg/mL
C[C@@H]1CN(C(=O)C(=O)c2c[nH]c3c(-n4ccnn4)ncc(F)c23)CCN1C(=O)c1ccccc1	trypan blue	>100 µM
NCc1cccc(-c2cncc(-c3cc(=O)n(O)c4ncccc34)c2)c1		<100 µM
CNC(=O)c1ncc(OC)c2c(C(=O)C(=O)N3CCN(C(=O)c4ccccc4)[C@H](C)C3)c[nH]c12	trypan blue	>100 µM
Cc1cc(CCCCCCCOc2ccc(C3=NCCO3)cc2)on1		37 µM
Nc1nc(N)nc(OC[C@H]2CC[C@@H](CO)O2)n1		>250 µM
CC1CCN(Cc2cccc(CNc3cc(=O)n(O)c4ncccc34)c2)CC1		<100 µM
C[C@H](CCC=C(CO)CO)[C@H]1CC[C@@]2(C)C3CC=C4[C@@H](CC[C@H](O)C4(C)C)[C@]3(C)C(=O)C[C@]12C	MTT	>50 µM
CS(=O)(=O)c1ccc(NCc2ccc(Br)cc2)nc1		>10 µg/mL
Nc1cc(OC[C@H]2CC[C@@H](COCc3ccccc3)O2)nc(N)n1		>250 µM
COc1cnc(-n2cc(F)cn2)c2[nH]cc(C(=O)C(=O)N3CCN(C(=O)c4ccccc4)CC3)c12	trypan blue	>100 µM
CCOC(=O)c1c(O)c2cc(C(=O)NCc3ccccc3)cnc2n(O)c1=O		<100 µM
Nc1cc(OC[C@H]2CC[C@@H](CO)O2)nc(N)n1		>250 µM

The last 3 rows once more:

structure,method,value
COc1cnc(-n2cc(F)cn2)c2[nH]cc(C(=O)C(=O)N3CCN(C(=O)c4ccccc4)CC3)c12,trypan blue,>100 µM
CCOC(=O)c1c(O)c2cc(C(=O)NCc3ccccc3)cnc2n(O)c1=O,,<100 µM
Nc1cc(OC[C@H]2CC[C@@H](CO)O2)nc(N)n1,,>250 µM